Anti-infective test results gathered from many reports (values: NIAID ChemDB through PubChem).

Common to all: whole-cell or culture tests; agent: Aspergillus fumigatus; method: broth dilution; read-out: MIC

Blank or dashed fields: not listed here.

structure	strain	result
CCOC(=O)C1=C(N)N(c2nc(-c3ccccc3)cs2)C2=C(C(=O)CCC2)C1c1cc2cc(C)ccc2nc1F	MTCC 3008	1000 µg/mL
O=C(CCl)N1CCN(C(c2ccccc2)c2ccc(Cl)cc2)CC1	ATCC 96918	50 µg/mL
N#CC1=C(N)Oc2c(c(=O)oc3ccccc23)C1c1cc2ccccc2nc1Sc1ccc(Cl)cc1	MTCC 3008	>1000 µg/mL
CCOC(=O)C1=C(N)N(c2nc(-c3ccccc3O)cs2)C2=C(C(=O)CCC2)C1c1cc2cc(Cl)ccc2nc1F	MTCC 3008	500 µg/mL
CC(C)=CCC/C(C)=C/CO	MTCC 2550	144 µg/mL
O=C(CN1CCN(C(c2ccccc2)c2ccc(Cl)cc2)CC1)Cn1ccnc1	ATCC 96918	25 µg/mL
COc1ccc2nc(F)c(C3C(C#N)=C(N)N(c4nc(-c5ccc(Cl)cc5)cs4)C4=C3C(=O)CCC4)cc2c1	MTCC 3008	1000 µg/mL
O=C(CN1CCN(C(c2ccccc2)c2ccc(Cl)cc2)CC1)Cn1cnc([N+](=O)[O-])c1	ATCC 96918	50 µg/mL
COc1ccc2nc(F)c(C3C(C#N)=C(N)N(c4nc(-c5ccccc5)cs4)C4=C3C(=O)CCC4)cc2c1	MTCC 3008	1000 µg/mL
COc1ccc2nc(N3CCOCC3)c(/C=C(/C#N)c3nc4ccc(C)cc4[nH]3)cc2c1	MTCC 3008	1000 µg/mL
COc1ccc2nc(Sc3ccc(Cl)cc3)c(C3C(C#N)=C(N)Oc4c3c(=O)oc3ccc(C)cc43)cc2c1	MTCC 3008	500 µg/mL
CCOC(=O)C1=C(N)N(c2nc(-c3ccc(Cl)cc3)cs2)C2=C(C(=O)CCC2)C1c1cc2cc(C)ccc2nc1F	MTCC 3008	500 µg/mL
COc1ccc(N=NC2SC(=Nc3ccccc3)N(CCN3C(=Nc4ccccc4)SC(N=Nc4ccc(OC)cc4)C3C)C2C)cc1	-	1.95 µg/mL
C[C@@H]1[C@H](O)[C@@H](C)/C=C/C=C/CC/C=C/C=C/C=C/C=C/C(O[C@H]2O[C@H](C)[C@@H](O)[C@H](N)[C@@H]2O)CC2O[C@](O)(CC(O)C(O)CCC(O)CC(O)CC(O)CC(=O)O[C@H]1C)CC(O)C2C(=O)O	MTCC 3008	100 µg/mL
N#CC1=C(N)N(c2nc(-c3ccc(O)cc3)cs2)C2=C(C(=O)CCC2)C1c1cc2cc(Cl)ccc2nc1F	MTCC 3008	1000 µg/mL
CC(=O)C1SC(=Nc2ccccc2)N(CCN2C(=Nc3ccccc3)SC(C(C)=O)C2C)C1C	-	0.49 µg/mL
CCOC(=O)C1=C(N)N(c2nc(-c3ccccc3)cs2)C2=C(C(=O)CCC2)C1c1cc2cc(Cl)ccc2nc1F	MTCC 3008	500 µg/mL
COc1ccc2nc(Sc3ccc(C)cc3)c(C3C(C#N)=C(N)Oc4cc(C)oc(=O)c43)cc2c1	MTCC 3008	1000 µg/mL
CCOC(=O)C1=C(N)N(c2nc(-c3ccc(Cl)cc3)cs2)C2=C(C(=O)CCC2)C1c1cc2cc(Cl)ccc2nc1F	MTCC 3008	1000 µg/mL
Clc1ccc(C(c2ccccc2)N2CCN(CCn3cncn3)CC2)cc1	ATCC 96918	200 µg/mL
Cc1ccc2nc(N3CCOCC3)c(/C=C(/C#N)c3nc4ccccc4[nH]3)cc2c1	MTCC 3008	1000 µg/mL
Cc1ccc2nc(Sc3ccccc3)c(C3C(C#N)=C(N)Oc4c3c(=O)oc3ccccc43)cc2c1	MTCC 3008	100 µg/mL
CCOC(=O)C1=C(N)N(c2nc(-c3ccccc3)cs2)C2=C(C(=O)CCC2)C1c1cc2cc(OC)ccc2nc1F	MTCC 3008	100 µg/mL
C[C@H]1[C@H](O)[C@@H](C)/C=C/C=C/C=C/C=C/C=C/C=C/C=C/[C@H](O[C@@H]2O[C@H](C)[C@@H](O)[C@H](N)[C@@H]2O)C[C@@H]2O[C@](O)(C[C@@H](O)C[C@@H](O)CC[C@H](O)[C@@H](O)C[C@@H](O)CC(=O)O[C@H]1C)C[C@H](O)[C@H]2C(=O)O	ITCC 1634	1.95 µg/mL
Cc1ccc2nc(N3CCOCC3)c(CC(C#N)c3nc4ccc(C)cc4[nH]3)cc2c1	MTCC 3008	250 µg/mL
O=[N+]([O-])c1cn(CC(O)CN2CCN(C(c3ccccc3)c3ccc(Cl)cc3)CC2)cn1	ATCC 96918	50 µg/mL
N#CC(Cc1cc2ccccc2nc1N1CCOCC1)c1nc2ccccc2[nH]1	MTCC 3008	1000 µg/mL
CC1C(N=Nc2ccc(Cl)cc2)SC(=Nc2ccccc2)N1CCN1C(=Nc2ccccc2)SC(N=Nc2ccc(Cl)cc2)C1C	-	3.9 µg/mL
OC(CCl)CN1CCN(C(c2ccccc2)c2ccc(Cl)cc2)CC1	ATCC 96918	100 µg/mL

Repeating the final 4 entries:

structure	strain	result
O=[N+]([O-])c1cn(CC(O)CN2CCN(C(c3ccccc3)c3ccc(Cl)cc3)CC2)cn1	ATCC 96918	50 µg/mL
N#CC(Cc1cc2ccccc2nc1N1CCOCC1)c1nc2ccccc2[nH]1	MTCC 3008	1000 µg/mL
CC1C(N=Nc2ccc(Cl)cc2)SC(=Nc2ccccc2)N1CCN1C(=Nc2ccccc2)SC(N=Nc2ccc(Cl)cc2)C1C	-	3.9 µg/mL
OC(CCl)CN1CCN(C(c2ccccc2)c2ccc(Cl)cc2)CC1	ATCC 96918	100 µg/mL

Lines come from different laboratories, so protocols vary.